Target: recombinant gp160 (HIV (IIIB or MN/LAI))
Assay: SPR
Conditions: bispecific antibody

With HY-[Hx4]-7B2 (from UniProt P01857) the Kd was 57 pM.
